Anti-infective test results gathered from many reports (values: NIAID ChemDB through PubChem).

ECn is the concentration giving n% inhibition of infection, replication or growth. Percent inhibition refers to the dose given; in toxicity tests it is the harm to the cells. Blank or dashed fields: not listed here. Conditions beyond the fields shown may differ between rows. Fold resistance has wild type as its base. ICn is the concentration giving n% inhibition. MIC50, MIC90 and the like: level of inhibition, or share of isolates inhibited.

SMILES,changes,tested at,read-out,target,test,species,method,cells,strain or isolate,value
CCN(C(=O)OCc1ccccc1)C1CCN(CC[C@](C)(CN(C)S(=O)(=O)c2ccccc2)c2ccccc2)CC1,CCR5-Y251A,-,IC50,CCR5,target,-,radiometric,-,-,0.11 µM
COc1ccc2cc3[n+](cc2c1OC)CCc1cc2c(cc1-3)OCO2,-,1 µg/mL,inhibition,-,culture,Vittaforma corneae,-,RK-13,-,55.2%
O=C(c1ccccc1Cl)N1C[C@H](CN2CCC(O)(CCCc3ccc(-c4nn[nH]n4)cc3)CC2)[C@@H](c2ccccc2)C1,CCR5-E283A,-,fold resistance,CCR5,target,-,radiometric,-,-,>909.1
CCO/N=C/c1ccc(OCCC2CCN(c3ccc(C)nn3)CC2)cc1,-,-,EC50,-,culture,Rhinovirus,neutral red,KB,56822 (ICAM-1 receptor group 42),0.136 µM
CCCCCCCC/C=C/CCCCCCCC(=O)Nc1nnc(NCCCCc2ccccc2)s1,-,-,IC50,Polymerase,target,Human cytomegalovirus,-,-,-,<25 µM
COc1cc(NCc2cnc3nc(N)nc(N)c3c2C)cc(OC)c1OC,-,0.01 µg/mL,inhibition,-,culture,Encephalitozoon intestinalis,-,RK-13,-,1%
O=C(Nc1nnc(NCc2ccncc2)s1)c1ccc(Cl)c(Cl)c1,-,-,IC50,Polymerase,target,Human cytomegalovirus,-,-,-,>25 µM
CCOC(=O)Nc1cc2[nH]c(-c3ccc4c(c3)OCO4)nc2c(NC(c2ccccc2)c2ccccc2)n1,-,0.1 µg/mL,inhibition,-,culture,Encephalitozoon intestinalis,-,RK-13,-,53.9%
Cc1cn([C@@H]2O[C@H](CO[Si](C)(C)C(C)(C)C)[C@@]3(OS(=O)(=O)C=C3N)[C@H]2O[Si](C)(C)C(C)(C)C)c(=O)[nH]c1=O,RT-N137D,-,IC50,Reverse transcriptase,target,HIV,nucleotide incorporation / radiometric,-,-,1.1 µM
O=C(Nc1ncc([N+](=O)[O-])s1)c1ccccc1O,-,0.1 µg/mL,inhibition,-,culture,Encephalitozoon intestinalis,-,RK-13,-,40.4%
CN(CC(C)(CCN1CCC(N(CCO)C(=O)OCc2ccc([N+](=O)[O-])cc2)CC1)c1ccsc1)S(=O)(=O)c1ccccc1,CCR5-W86A,-,fold resistance,CCR5,target,-,radiometric,-,-,455
O=C(Nc1nnc(NCCCCc2ccccc2)s1)c1cc(F)cc(F)c1,-,-,IC50,Polymerase,target,Human cytomegalovirus,-,-,-,>25 µM
CC1=CC(=O)c2c(O)cccc2C1=O,-,0.01 µg/mL,inhibition,-,culture,Encephalitozoon intestinalis,-,RK-13,-,6.4%
Nc1nc2c(ncn2[C@H]2CC[C@@H](COP(=O)(O)OP(=O)(O)OP(=O)(O)O)O2)c(=O)[nH]1,RT-N137H,-,IC50,Reverse transcriptase,target,HIV,nucleotide incorporation / radiometric,-,-,0.7 µM
O=C(Nc1nnc(NCCSc2ccccc2)s1)c1ccc2c(c1)C(=O)OC2=O,-,-,IC50,Polymerase,target,Human cytomegalovirus,-,-,-,<25 µM
C#CC[C@@H](C(=O)N[C@H](/C=C/C(=O)OCC)C[C@@H]1CCNC1=O)n1cccc(NC(=O)c2cc(C)on2)c1=O,-,-,EC50,-,culture,Rhinovirus,cytopathic effect / XTT,H1-HELA,Serotype 49,0.017 µM
O=C(Nc1nnc(NCCC(c2ccccc2)c2ccccc2)s1)c1ccc2c(c1)C(=O)OC2=O,-,-,IC50,Polymerase,target,Human cytomegalovirus,-,-,-,<25 µM
Cc1ncc([N+](=O)[O-])n1CCO,-,0.01 µg/mL,inhibition,-,culture,Encephalitozoon intestinalis,-,RK-13,-,13.4%
CC(C)=CCOc1cc(NC(=S)c2ccoc2C)ccc1Cl,RT-P95A,-,fold resistance,Reverse transcriptase,target,HIV,nucleotide incorporation / radiometric,-,-,0.13
CCOC(=O)Nc1cc2c(c(N)n1)N=C(c1ccc3ccccc3c1)CS2,-,0.01 µg/mL,inhibition,-,culture,Encephalitozoon intestinalis,-,RK-13,-,1.8%
CC(C)=CCN1Cc2cc(Cl)cc3[nH]c(=S)n(c23)C[C@@H]1C,RT-L74V,-,EC95,-,culture,HIV-1,-,MT-4,-,1.5 µM
CCCCCCCC/C=C/CCCCCCCC(=O)Nc1nnc(NCCN2CCCC2)s1,-,-,IC50,Polymerase,target,Human cytomegalovirus,-,-,-,<25 µM
COc1cc(C[C@H](C)[C@H](C)Cc2ccc(O)c(O)c2)ccc1O,-,-,MIC80,-,culture,Candida albicans,broth dilution,-,CCC 130-2000,125 µg/mL
O=C(Nc1nnc(NC2CCN(Cc3ccccc3)CC2)s1)c1ccc2c(c1)C(=O)OC2=O,-,-,IC50,Polymerase,target,Human cytomegalovirus,-,-,-,<25 µM
CO[C@H]1[C@@H](OC(=O)/C=C/C=C/C=C/C=C/C(=O)O)CC[C@@]2(CO2)[C@@H]1[C@@]1(C)O[C@@H]1CC=C(C)C,-,0.00005 µg/mL,inhibition,-,culture,Encephalitozoon intestinalis,-,RK-13,-,50.3%

A second listing of 3 rows from above:

SMILES	changes	tested at	read-out	target	test	species	method	cells	strain or isolate	value
O=C(Nc1nnc(NCCCCc2ccccc2)s1)c1cc(F)cc(F)c1	-	-	IC50	Polymerase	target	Human cytomegalovirus	-	-	-	>25 µM
CC(C)=CCN1Cc2cc(Cl)cc3[nH]c(=S)n(c23)C[C@@H]1C	RT-L74V	-	EC95	-	culture	HIV-1	-	MT-4	-	1.5 µM
CCOC(=O)Nc1cc2c(c(N)n1)N=C(c1ccc3ccccc3c1)CS2	-	0.01 µg/mL	inhibition	-	culture	Encephalitozoon intestinalis	-	RK-13	-	1.8%